Compound potency records, mixed from different reports. Data source: NIAID ChemDB in PubChem.

Shared fields: growth or infection tests; agent: Mycobacterium avium complex; read-out: MIC90

Neighbouring rows are from separate reports.

structure	strain or isolate	result
CC1COc2c(C3(N)CC3)c(F)cc3c(=O)c(C(=O)O)cn1c23	16 isolates	>100 µg/mL
CC[C@H](C)N1CCN(c2cc(=O)c3nc4c(oc3c2)c2c(=O)c3c(O)c(C)c5c(c34)=C(O)[C@@](C)(O/C=C/[C@H](OC)[C@@H](C)[C@@H](OC(C)=O)[C@H](C)[C@H](O)[C@H](C)[C@@H](O)[C@@H](C)/C=C/C=C(/C)C(=O)N2)O5)CC1	18 strains	3.13 µg/mL
CO[C@H]1/C=C/O[C@@]2(C)Oc3c(C)c(O)c4c(O)c(c(/C=N/N5CCN(C)CC5)c(O)c4c3C2=O)NC(=O)/C(C)=C\C=C\[C@H](C)[C@H](O)[C@@H](C)[C@@H](O)[C@@H](C)[C@H](OC(C)=O)[C@@H]1C	40 isolates	25 µg/mL
CC1CN(c2c(F)cc3c(=O)c(C(=O)O)cn(C4CC4)c3c2F)CCN1		2 µg/mL
CC[C@H]1OC(=O)[C@H](C)[C@@H](O[C@H]2C[C@@](C)(OC)[C@@H](O)[C@H](C)O2)[C@H](C)[C@@H](O[C@@H]2O[C@H](C)C[C@H](N(C)C)[C@H]2O)[C@](C)(O)C[C@@H](C)CN(C)[C@H](C)[C@@H](O)[C@]1(C)O	32 isolates	16 µg/mL
NC1CCN(c2nc3c(cc2F)c(=O)c(C(=O)O)cn3-c2ccc(F)cc2F)C1	16 isolates	>100 µg/mL
O=C(O)c1cn(C2CC2)c2c(F)c(N3CCSCC3)c(F)cc2c1=O		16 µg/mL
CN1CCCC1CCN=c1cc2n(-c3ccc(Cl)cc3)c3ccccc3nc-2cc1Nc1ccccc1	10 srtains	0.83 µg/mL
O=C(O)c1cn(C2CC2)c2c(F)c(N3CCNCC3)c(F)cc2c1=O		4 µg/mL
CC(C)N1CCN(c2c(F)cc3c(=O)c(C(=O)O)cn(C4CC4)c3c2Cl)CC1	14 strains	8 µg/mL
NC[C@@H]1O[C@H](O[C@H]2[C@@H](O)[C@H](O[C@@H]3[C@@H](O)[C@H](N)C[C@H](N)[C@H]3O[C@H]3O[C@H](CO)[C@@H](O)[C@H](O)[C@H]3N)O[C@@H]2CO)[C@H](N)[C@@H](O)[C@@H]1O	32 isolates	16 µg/mL
COC1CCN(c2c(F)cc3c(=O)c(C(=O)O)cn(C4CC4)c3c2F)C1	14 strains	4 µg/mL
Nc1nc(-n2cc(C(=O)O)c(=O)c3cc(F)c(N4CC(O)C4)c(Cl)c32)c(F)cc1F	20 strains	25 µg/mL
CO[C@H]1/C=C/O[C@@]2(C)Oc3c(C)c(O)c4c(O)c(c5c(c4c3C2=O)NC2(CCN(CC(C)C)CC2)N=5)=NC(=O)/C(C)=C\C=C\[C@H](C)[C@H](O)[C@@H](C)[C@@H](O)[C@@H](C)[C@H](OC(C)=O)[C@@H]1C	20 strains	5 µg/mL
C[C@H]1COc2c(N3CCN(C)CC3)c(F)cc3c(=O)c(C(=O)O)cn1c23	16 isolates	12.5 µg/mL
CCCCN1CCN(c2cc3c(cc2F)c(=O)c(C(=O)O)cn3-c2ccc(F)cc2F)CC1	14 strains	16 µg/mL
N[C@@H]1CN(c2c(F)cc3c(=O)c(C(=O)O)cn([C@@H]4C[C@@H]4F)c3c2Cl)CC12CC2	16 isolates	12.5 µg/mL
NCC1CCN(c2c(F)cc3c(=O)c(C(=O)O)cn(C4CC4)c3c2F)C1	14 strains	8 µg/mL
NC(=O)c1ncn([C@@H]2O[C@H](CO)[C@@H](O)[C@H]2O)n1	32 isolates	>128 µg/mL
O=C(O)c1cn(C2CC2)c2c(F)c(N3CCS(=O)CC3)c(F)cc2c1=O		4 µg/mL
CC[C@@H](C)N1CCN(c2cc(=O)c3nc4c(oc3c2)c2c(=O)c3c(O)c(C)c5c(c34)=C(O)[C@@](C)(O/C=C/[C@H](OC)[C@@H](C)[C@@H](OC(C)=O)[C@H](C)[C@H](O)[C@H](C)[C@@H](O)[C@@H](C)/C=C/C=C(/C)C(=O)N2)O5)CC1	18 strains	3.13 µg/mL
CN(C)C1CCN(c2c(F)cc3c(=O)c(C(=O)O)cn(C4CC4)c3c2F)C1	14 strains	2 µg/mL
COc1c(N2CCNC(C)C2)c(F)cc2c(=O)c(C(=O)O)cn(C3CC3)c12	16 isolates	6.25 µg/mL
CC(C)(N)C1CCN(c2c(F)cc3c(=O)c(C(=O)O)cn(C4CC4)c3c2F)C1		16 µg/mL
Clc1ccc(Nc2cc3nc4ccccc4n(-c4ccc(Cl)cc4)c-3cc2=NCCCN2CCCC2)cc1	10 srtains	2 µg/mL
CCn1cc(C(=O)O)c(=O)c2cc(F)c(N3CCNCC3)cc21		32 µg/mL
O=C(O)c1cn(C2CC2)c2cc(N3CCNCC3)c(F)cc2c1=O	32 isolates	8 µg/mL
CCC1CN(c2cc3c(cc2F)c(=O)c(C(=O)O)cn3C2CC2)CCN1	14 strains	4 µg/mL
CCCN1CCN(c2cc(=O)c3nc4c(oc3c2)c2c(=O)c3c(O)c(C)c5c(c34)=C(O)[C@@](C)(O/C=C/[C@H](OC)[C@@H](C)[C@@H](OC(C)=O)[C@H](C)[C@H](O)[C@H](C)[C@@H](O)[C@@H](C)/C=C/C=C(/C)C(=O)N2)O5)CC1	20 strains	0.3 µg/mL
COc1c(N2CCNC(C)C2)c(F)cc2c(=O)c(C(=O)O)cn(C3CC3)c12	14 strains	2 µg/mL
O=C(O)c1cn(C2CC2)c2c(F)c(N3CC4C(CO)C4C3)c(F)cc2c1=O	14 strains	32 µg/mL
CO[C@H]1/C=C/O[C@@]2(C)Oc3c(C)c(O)c4c(O)c(c(/C=N/N5CCN(C)CC5)c(O)c4c3C2=O)NC(=O)/C(C)=C\C=C\[C@H](C)[C@H](O)[C@@H](C)[C@@H](O)[C@@H](C)[C@H](OC(C)=O)[C@@H]1C	20 strains	>100 µg/mL
O=C(O)c1cn(C2CC2)c2c(F)c(N3CCS(=O)(=O)CC3)c(F)cc2c1=O		4 µg/mL
CC1COc2c(N3CCN(C)CC3)c(F)cc3c(=O)c(C(=O)O)cn1c23	20 strains	12.5 µg/mL
NC1CC2CCC(C1)N2c1nc2c(cc1F)c(=O)c(C(=O)O)cn2C1CC1	14 strains	16 µg/mL
COC(=O)[C@H]1[C@H]2C[C@@H]3c4[nH]c5cc(OC)ccc5c4CCN3C[C@H]2C[C@@H](OC(=O)c2cc(OC)c(OC)c(OC)c2)[C@@H]1OC	32 isolates	>128 µg/mL
CNC1CCN(c2c(F)cc3c(=O)c(C(=O)O)cn(C4CC4)c3c2F)C1	14 strains	8 µg/mL

A second listing of 3 rows from above:

CC[C@@H](C)N1CCN(c2cc(=O)c3nc4c(oc3c2)c2c(=O)c3c(O)c(C)c5c(c34)=C(O)[C@@](C)(O/C=C/[C@H](OC)[C@@H](C)[C@@H](OC(C)=O)[C@H](C)[C@H](O)[C@H](C)[C@@H](O)[C@@H](C)/C=C/C=C(/C)C(=O)N2)O5)CC1 ; strain or isolate: 18 strains ; result: 3.13 µg/mL
O=C(O)c1cn(C2CC2)c2c(F)c(N3CCNCC3)c(F)cc2c1=O ; result: 4 µg/mL
CO[C@H]1/C=C/O[C@@]2(C)Oc3c(C)c(O)c4c(O)c(c(/C=N/N5CCN(C)CC5)c(O)c4c3C2=O)NC(=O)/C(C)=C\C=C\[C@H](C)[C@H](O)[C@@H](C)[C@@H](O)[C@@H](C)[C@H](OC(C)=O)[C@@H]1C ; strain or isolate: 20 strains ; result: >100 µg/mL

A number after MIC or MFC names an inhibition level or a share of isolates. An empty or dashed field is not shown.